Experimental data published in US20230270872A1, “CONJUGATE OF SAPONIN AND SINGLE-DOMAIN ANTIBODY, PHARMACEUTICAL COMPOSITION COMPRISING SAID CONJUGATE, THERAPEUTIC USE THEREOF” (SAPREME TECHNOLOGIES B.V., priority 2020, published 2023).

Experiments:
A431 cells = experiment: Cell viability (MTS) assay, targeted protein toxin mediated cell killing; type: cell-based, human; conditions: A431 (EGFR++/HER2+/-)
MDA-MB-468 cells = experiment: as above; type: cell-based, human; conditions: read-out: IC50, mAb or T-DM1 monotherapy
[1] = test system: A431 (EGFR++/HER2+/-/CD71+) xenograph; experiment: A431 xenograph nude mouse tumor model, 2T2C tumor targeted cell killing; type: in vivo; conditions: second experiment: 25 mg/kg cetuximab-(Cys-L-SO1861)^4 i.p. + 0.03 mg/kg toxin conjugate i.v., day 9, 14, then weekly; cetuximab as positive control
Description: The 2 target 2-components system (2T2C) is the combination treatment of mAb1-SO1861 and mAb2-protein toxin, (FIG. 1B-D).

Substance	IC50, cell killing; titration of SO1861 conjugate or unconjugated mAb control, alone or + fixed toxin conjugate as in label (A431 cells)	IC50 (MDA-MB-468 cells) [µM]	tumor response [1]
cetuximab-(Cys-L-SO1861)^3,7: SO1861-EMCH conjugated via cysteine residues to cetuximab	could not induce any cell killing activity		
T-DM1: Trastuzumab-emtansine carrying ~3.5 DM1 toxin molecules per antibody		0.06	
Cetuximab: monoclonal antibody recognizing and binding human EGFR	could not induce any cell killing activity		only tumor growth inhibition, but no regression
